# Measured values as given in publication doi:10.1101/2022.06.18.496527.
# Experiments:
# [1] = target: OsExo70F3^Δ93 (rice); test: ITC; settings: domain or fragment
# [2] = target: OsExo70F3^Δ93 (rice); test: ITC; settings: domain or fragment; remark: listed apart in the source
substance,measurement,setting,value
"AVR-Pii effector domain (residues 20 to 70), purified",pKd,[1],8.55
same,pKd,[2],8.38

# pKd: −log10 of the molar value.
